{
  "source": "patent US20220145343A1",
  "about": "(priority 2019, published 2022)",
  "key": {"[1]": {"system": "NmCSS and PmAldolase", "details": "step 1 in the presence of NmCSS (0.75 mg/mL) and PmAldolase (2 mg/mL) for 10 h"}, "[2]": {"system": "α2-6-sialyltransferase activity of NmSiaDW", "details": "acceptor G4"}, "[3]": {"system": "α2-6-sialyltransferase activity of NmSiaDW", "details": "galactoside as acceptor, CMP-Neu5Ac as donor"}, "[4]": {"system": "α1-4-galactosyltransferase activity of NmSiaDW", "details": "UDP-Gal as donor; for Product: sialoside as acceptor"}},
  "note": "Where two headings read alike, the source gives them in different places. Marks after values point to notes of the source that are not given here.",
  "data": [
    {"compound": "[N-]=[N+]=NC[C@@H](O)[C@@H](N=[N+]=[N-])[C@H](O)[C@@H](C=O)N=[N+]=[N-]", "values": [
      {"measurement": "Percentage conversion (%) CMP-Sialic acid", "setting": "[1]", "result": "81 ± 1 ^b %"},
      {"measurement": "Percentage conversion (%) Transferase Reaction", "setting": "[2]; 13 μg/mL NmSiaDW, 10 min", "result": 0, "unit": "%"},
      {"measurement": "Percentage conversion (%) Transferase Reaction", "setting": "[2]; 0.78 mg/mL NmSiaDW, 10 h", "result": 0, "unit": "%"}
    ]},
    {"compound": "[N-]=[N+]=N[C@@H]([C@H](O)[C@@H](C=O)N=[N+]=[N-])[C@H](O)CO", "values": [
      {"measurement": "Percentage conversion (%) CMP-Sialic acid", "setting": "[1]", "result": "53 ± 4 ^b %"},
      {"measurement": "Percentage conversion (%) Transferase Reaction", "setting": "[2]; 13 μg/mL NmSiaDW, 10 min", "result": 0, "unit": "%"},
      {"measurement": "Percentage conversion (%) Transferase Reaction", "setting": "[2]; 0.78 mg/mL NmSiaDW, 10 h", "result": 0, "unit": "%"}
    ]},
    {"compound": "Galα1-4Neu5Acα2-6GalβpNP", "values": [
      {"measurement": "Product", "setting": "[3]", "result": "√"}
    ]},
    {"compound": "Galβ1-4Glcβ2AA", "values": [
      {"measurement": "Product", "setting": "[3]", "result": "√"}
    ]},
    {"compound": "Galβ1-4GlcβMU", "values": [
      {"measurement": "Product", "setting": "[3]", "result": "√"}
    ]},
    {"compound": "GalβProN3", "values": [
      {"measurement": "Product", "setting": "[3]", "result": "√"}
    ]},
    {"compound": "Neu5Ac9NAcα2-6GalβProN3", "values": [
      {"measurement": "Product", "setting": "[4]", "result": "√"}
    ]},
    {"compound": "Neu5Ac9NAcα2-6GalβpNP", "values": [
      {"measurement": "Product", "setting": "[4]", "result": "√"}
    ]},
    {"compound": "Neu5Acα2-6Galβ1-4βProN3", "values": [
      {"measurement": "Product", "setting": "[4]", "result": "√"}
    ]},
    {"compound": "Neu5AcαOMe", "values": [
      {"measurement": "acceptor substrate suitability in words", "setting": "[4]", "result": "suitable acceptor substrates"},
      {"measurement": "Product", "setting": "[4]", "result": "√"}
    ]}
  ]
}
